According to PMC10662765:
For at least one entry, the source does not settle the construct or the ends of the probe. At least one verdict rests on a figure or table, not on a statement of the authors.

Biological target: NP WT (Influenza A virus A/NT/60/1968 (H3N2)) (UniProt Q08041)
Experiment: EMSA
Conditions: recombinant protein; label: none (SYBR Safe stain)

Sequence: AGUAGAAACAAGGCCGUAGAAUGAUGUAUAUGAGACAGA [39-nt RNA]
- binding result: binds
